The source of these data is PMC13334617.

Experiment [1] has as its target ACM1-FKBP fusion, purified (Bordetella pertussis | not stated). The experiment can be described thus: adenylate cyclase activation titration (enzyme activity).
The target is the same in experiment [2]. The description is as above. This is another data set of the same source.

Where two headings read alike, the source gives them in different places. Some results are limits rather than exact numbers.

What is called Kd is the equilibrium constant for the complex coming apart. The low end stands for a tighter complex, the high end for a looser complex.

Take “CaM-FRB fusion, purified (FRB at the N-terminus of calmodulin)”: the equilibrium dissociation constant (Kd) was 749 nM in experiment [1] and greater than 5 µM in experiment [2].
